Experimental data reported in ChEMBL document CHEMBL1142270, “Synthesis, thermal stability, antimalarial activity of symmetrically and asymmetrically substituted tetraoxanes” (Bioorg Med Chem Lett, 2008).

Assays:
Plasmodium falciparum [1] = assay: Antimalarial activity against Plasmodium falciparum D6 in parasite LDH assay; type: functional, organism-based
Plasmodium falciparum [2] = assay: Antimalarial activity against Plasmodium falciparum W2 in parasite LDH assay; type: functional, organism-based

Question: What does the source list for `c1ccc(C2OOC3(CCCC3)OO2)cc1`?
Answer: IC50 (Plasmodium falciparum [1]): 8.09 µM; IC50 (Plasmodium falciparum [2]): 7.65 µM
